A mixed list of measured activities; the numbers were collected in NIAID ChemDB.

All rows: tests on isolated targets; agent: HIV-1; protein: Integrase; read-out: IC50

ICn: concentration for n% inhibition.

SMILES	method	value
CC(=O)Nc1cn2ccn(Cc3ccc(F)cc3)c(=O)c2c(O)c1=O	ELISA	0.01–0.1 µM
N#C/C(=C\c1ccc(O)c(O)c1)C(=O)NCCCNC(=O)/C(C#N)=C/c1ccc(O)c(O)c1	3′ processing / substrate cleavage	1.9 µM
O=C(O)c1cn(Cc2cccc(Cl)c2)c(=O)c2c(O)c(=O)ccn12	ELISA	0.01–0.1 µM
O=C1/C(=C/c2cc(O)c(O)c(O)c2)CSC/C1=C\c1cc(O)c(O)c(O)c1	3′ processing	0.7 µM
O=C(O)CC(C(=O)O)c1ccc(N=Nc2c(S(=O)(=O)O)cc3cc(NC(=O)C(=O)Nc4ccc5c(O)c(N=Nc6ccc(C(CC(=O)O)C(=O)O)cc6)c(S(=O)(=O)O)cc5c4)ccc3c2O)cc1	strand transfer	1 µM
COc1ccc(NC(=O)/C(C#N)=C/c2ccc(O)c(O)c2)cc1O	strand transfer	10–100 µM
O=C1C(=Cc2cc(O)c(O)c(O)c2)C(=O)c2ccccc21	3′ processing	0.2 µM
N#C/C(=C\c1ccc(O)c(O)c1)C(=O)NCCN1CCN(C(=O)/C(C#N)=C/c2ccc(O)c(O)c2)CC1	3′ processing / substrate cleavage	5–10 µM
O=C(Nc1ccc2c(O)c(N=Nc3c(F)c(F)c(C(=O)O)c(F)c3F)c(S(=O)(=O)O)cc2c1)Nc1ccc2c(O)c(N=Nc3c(F)c(F)c(C(=O)O)c(F)c3F)c(S(=O)(=O)O)cc2c1	strand transfer	0.33 µM
N#C/C(=C\c1ccc(O)c(O)c1)C(=O)NCc1ccccc1	3′ processing / substrate cleavage	10–100 µM
O=C(/C=C/c1ccc(Cl)c(Cl)c1)/C=C/c1ccc(Cl)c(Cl)c1	3′ processing	>100 µM
Cc1cn(Cc2cccc(F)c2)c(=O)c2c(O)c(=O)c(-c3ccccn3)cn12	ELISA	0.01–0.1 µM
Cn1cc(C(=O)O)c(=O)c2cc(N)c(N3CCN(c4ccccn4)CC3)cc21	strand transfer	75 µM
CN(C)CCCNC(=O)c1cc(NC(=O)c2cc(NC(=O)c3cc(NC(=O)CNC(=O)c4cc(NC(=O)c5cc(NC(=O)c6cc(NC(=O)CCCN)cn6C)cn5C)cn4C)cn3C)cn2C)cn1C	3′ processing	0.75 µM
O=C(NCc1ccc(F)cc1)c1occc(=S)c1O	3′ processing	>100 µM
CNC(=O)c1cc(=O)c(O)c2n1CCN(Cc1ccc(Cl)c(Cl)c1)C2=O	ELISA	0.01–0.1 µM
COC(=O)c1cc(NC(=O)c2nc(NC(=O)c3cc(NC(=O)c4cc(NC(=O)CCCNC(=O)c5nc(NC(=O)c6cc(NC(=O)c7cc(NC(=O)c8nc(NC(=O)CCCN)cn8C)cn7C)cn6C)cn5C)cn4C)cn3C)cn2C)cn1C	3′ processing	30 µM
O=C(O)c1ccccc1SCc1cc(O)ccc1O	3′ processing / substrate cleavage	10–100 µM
O=C(Nc1ccc2c(O)c(N=Nc3cccc(C(=O)O)c3)c(S(=O)(=O)O)cc2c1)Nc1ccc2c(O)c(N=Nc3cccc(C(=O)O)c3)c(S(=O)(=O)O)cc2c1	strand transfer	0.5 µM
COC(=O)c1cc(NC(=O)c2nc(NC(=O)c3cc(NC(=O)c4nc(NC(=O)CCCN)cn4C)cn3C)cn2C)cn1C	3′ processing	35 µM
O=C(NCc1ccc(F)cc1)c1nc[nH]c(=O)c1O	3′ processing	>100 µM
N#C/C(=C\c1cc(O)c(O)c([N+](=O)[O-])c1)C(=O)NCCCNC(=O)/C(C#N)=C/c1cc(O)c(O)c([N+](=O)[O-])c1	disintegration	>12 µM
CC(=O)Nc1cn2ccn(Cc3ccc(F)c(Cl)c3)c(=O)c2c(O)c1=O	ELISA	<0.01 µM
N#C/C(=C\c1ccc(O)c(O)c1)C(=O)NCC1CCCC(CNC(=O)/C(C#N)=C/c2ccc(O)c(O)c2)C1	strand transfer	5–10 µM
O=C1/C(=C/c2ccc(O)c(O)c2)CN(Cc2ccccc2)C/C1=C\c1ccc(O)c(O)c1	strand transfer	2.2 µM
O=c1ncn2ccn(Cc3cccc(Cl)c3)c(=O)c2c1O	ELISA	0.01–0.1 µM
O=C1C(=O)N(Cc2ccccc2[N+](=O)[O-])c2ccccc21	3′ processing	800 µM
COC(=O)c1cc(NC(=O)c2nc(NC(=O)c3cc(NC(=O)c4nc(NC(=O)CCCNC(=O)c5cc(NC(=O)c6cc(NC(=O)c7cc(NC(=O)c8nc(NC(=O)CCCN)cn8C)cn7C)cn6C)cn5C)cn4C)cn3C)cn2C)cn1C	3′ processing	0.75 µM
COc1cc(C(=O)O)ccc1N=Nc1c(S(=O)(=O)O)cc2cc(NC(=O)Nc3ccc4c(O)c(N=Nc5ccc(C(=O)O)cc5OC)c(S(=O)(=O)O)cc4c3)ccc2c1O	strand transfer	0.7 µM
O=C1c2c(O)c(=O)ccn2C(CO)CN1Cc1ccc(Cl)c(Cl)c1	ELISA	0.01–0.1 µM
CCOC(=O)c1ccc(N=Nc2c(S(=O)(=O)O)cc3cc(NC(=O)Nc4ccc5c(O)c(N=Nc6ccc(C(=O)OCC)cc6)c(S(=O)(=O)O)cc5c4)ccc3c2O)cc1	strand transfer	1.3 µM
O=S(=O)(Nc1ccccc1C(F)(F)F)c1cccc2cnccc12	strand transfer	1000 µM
CCN1C/C(=C\c2cc(O)c(O)c(O)c2)C(=O)/C(=C/c2cc(O)c(O)c(O)c2)C1	strand transfer	0.4 µM
O=C1C(=O)N(Cc2ccc([N+](=O)[O-])cc2)c2ccccc21	3′ processing	500 µM
O=C(O)CC1C/C(=C\c2ccc(O)c(O)c2)C(=O)/C(=C/c2ccc(O)c(O)c2)C1	strand transfer	1.2 µM
O=C(O)c1cc(F)ccc1CN1CCn2cc(-c3nccs3)c(=O)c(O)c2C1=O	ELISA	0.01–0.1 µM
N#Cc1ccccc1-c1ccc(CS(=O)(=O)c2nc3ccccc3s2)cc1	strand transfer	700 µM

Again, the opening 3 rows:

| SMILES | method | value |
|---|---|---|
| CC(=O)Nc1cn2ccn(Cc3ccc(F)cc3)c(=O)c2c(O)c1=O | ELISA | 0.01–0.1 µM |
| N#C/C(=C\c1ccc(O)c(O)c1)C(=O)NCCCNC(=O)/C(C#N)=C/c1ccc(O)c(O)c1 | 3′ processing / substrate cleavage | 1.9 µM |
| O=C(O)c1cn(Cc2cccc(Cl)c2)c(=O)c2c(O)c(=O)ccn12 | ELISA | 0.01–0.1 µM |

Neighbouring rows are from separate reports. a–b is a range or a potency band.